# From the supplement of paper PMC9262897, “Low-cost anti-mycobacterial drug discovery using engineered E. coli” (Nature Communications, 2022)
# ± gives the standard deviation of the averaged measurements. This is a selection; strong and weak results do not stand in their true shares.
# System: E. coli TESEC Alr+ wild-type control
# Assay: growth (OD600 after 10 h); higher = more growth (less inhibition)
# Conditions: compound 0.1 mM; raw OD600 reference: median of DMSO wells 0.49, cell-free background 0.052
# Procedure: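 TESEC Mtb Alr E. coli (ΔaraC ΔtolC ΔentC Δalr ΔdadX, arabinose-inducible Mtb Alr) or the Alr+ wild-type control strain, grown in defined M9-fructose medium without D-alanine in 96-well plates with Prestwick library compounds at 0.1 mM and 1% DMSO. Low Alr induction is 0.1 µM arabinose and high induction is 10 mM arabinose.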
row,SMILES,growth
1,COc1cc(Br)c(C[N+]2(CCOCCC3CCC4CC3C4(C)C)CCOCC2)cc1OC (stereo unspecified) [Pinaverium bromide],0.0476 ± 0.00064
